A mixed list of measured activities; the numbers were collected in NIAID ChemDB.

All rows: growth or infection tests; species: HIV-1; cells: CEM + CEM-SS; read-out: EC50

Blank or dashed fields: not listed here. ECn is the concentration giving n% inhibition of infection, replication or growth. Lines come from different laboratories, so protocols vary.

compound | strain or isolate | mutations | method | result
CCCc1cc(=O)oc2c3c(c4c(c12)OC(C)(C)C=C4)O[C@H](C)[C@@H](C)[C@@H]3O | NL4-3 | RT-A98G | XTT | 0.2 µM
Cc1cn([C@H]2C[C@H](N=[N+]=[N-])[C@@H](CO)O2)c(=O)[nH]c1=O | RF |  | cytopathic effect / XTT | 0.01 µM
Cc1cn([C@H]2C[C@H](N=[N+]=[N-])[C@@H](CO)O2)c(=O)[nH]c1=O | IIIB | RT-V108I | cytopathic effect / XTT | 0.04 µM
Cc1cn([C@@H]2O[C@H](CO[Si](C)(C)C(C)(C)C)[C@@]3(OS(=O)(=O)C=C3N)[C@H]2O[Si](C)(C)C(C)(C)C)c(=O)[nH]c1=O | IIIB |  | cytopathic effect / XTT | 0.05 µM
Fc1cccc(F)c1C1SCc2nc3ccccc3n21 | Calanolide A-resistant (RT T139I) | RT-T139I | XTT | 3.9 µM
C/C=C/CSc1cc(NC(=S)c2ccsc2C)ccc1Cl | NL4-3 (RT Y181C) | RT-Y181C | cytopathic effect / XTT | 0.8 µM
Cc1ccnc2c1NC(=O)c1cccnc1N2C1CC1 | IIIB | RT-L100I | cytopathic effect / XTT | 0.14 µM
Fc1cccc(F)c1C1SCc2nc3ccccc3n21 | UC10-resistant (RT Y181C K101E) | RT-Y181C K101E | cytopathic effect / XTT | >69 µM
Cc1ccnc2c1NC(=O)c1cccnc1N2C1CC1 | Pyridinone-resistant (RT K103N Y181C) | RT-Y181C L103N | XTT | >38 µM
Cc1c(Sc2ccccc2)n(COCCO)c(=O)[nH]c1=O | IIIB | RT-A98G V108I | cytopathic effect / XTT | >325 µM
Cc1occc1C(=S)Nc1ccc(Cl)c(/C=N/OC(C)(C)C)c1 | 4XAZT+L100I |  | cytopathic effect / XTT | 1 µM
Cc1cn([C@H]2C[C@H](N=[N+]=[N-])[C@@H](CO)O2)c(=O)[nH]c1=O | NL4-3(RT-4XAZT+L100I) | RT-D67N K70R L100I T215Y K219Q | XTT | 0.02 µM
CC(C)=CCN1Cc2cc(Cl)cc3[nH]c(=S)n(c23)C[C@@H]1C | LAV |  | cytopathic effect / MTT | 0.148 µM
CCc1c(Sc2ccccn2)n(COCc2ccccc2)c(=O)[nH]c1=O | NL4-3 | RT-Y181C | cytopathic effect / XTT | 1.25 µM
CCCc1cc(=O)oc2c3c(c4c(c12)OC(C)(C)C=C4)O[C@@H](C)[C@H](C)[C@@H]3O | NL4-3 1 (RT K101E) | RT-K101E | XTT | 2.9 µM

Repeating the final 2 entries:

compound | strain or isolate | mutations | method | result
CCc1c(Sc2ccccn2)n(COCc2ccccc2)c(=O)[nH]c1=O | NL4-3 | RT-Y181C | cytopathic effect / XTT | 1.25 µM
CCCc1cc(=O)oc2c3c(c4c(c12)OC(C)(C)C=C4)O[C@@H](C)[C@H](C)[C@@H]3O | NL4-3 1 (RT K101E) | RT-K101E | XTT | 2.9 µM